PubChem BioAssay AID1259414 | Drosophila RNAi Screening Center | 2018
In all, the deposit lists about 24,000 reagents; this is an unselected part of those that have a named target and a result. Of all reagents, about 1,210 (5%) got an active call. 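Inactive calls also include excluded dsRNAs with several or no targets, genes unexpressed in JW18, and well A1, regardless of score.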 Reagents against one gene are numbered here. Names joined by + are all predicted targets of the reagent.

Purpose: 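Genome-wide screen for host control of endosymbiont load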 (primary screen)
Cell system: Drosophila JW18 cells infected with Wolbachia
Reagents: long dsRNA against Drosophila genes, 0.25 µg dsRNA per well of a 384-well plate
Time to read-out: 5 days
Conditions: cells persistently infected with Wolbachia before knock-down; no added drug
Read-out: 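Imaged fluorescence in situ signal for Wolbachia 23S rRNA per DAPI-counted host cell, given as a robust z-score within each plate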
Scale: Wolbachia per cell robust z: higher = more Wolbachia per host cell than the plate typical
Call rule: 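Active if absolute robust z reaches 1.5 in two or more of three replicates, leaving out multi- or no-target dsRNAs, genes unexpressed in JW18 and A1 wells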

Knock-down of CG7299 (GeneID 34468) #1 gave: Wolbachia per cell robust z, rep 1 = -0.669; Wolbachia per cell robust z, rep 2 = -1.16; Wolbachia per cell robust z, rep 3 = -0.818; inactive.
After knock-down of CG7299 (GeneID 34468) #2, the record shows Wolbachia per cell robust z, rep 1 = 0.847; Wolbachia per cell robust z, rep 2 = 0.71; Wolbachia per cell robust z, rep 3 = -0.492; inactive.
With knock-down of CG16957 (GeneID 34755), the screen gave Wolbachia per cell robust z, rep 1 = 1.08; Wolbachia per cell robust z, rep 2 = -0.212; Wolbachia per cell robust z, rep 3 = -3.84; inactive.
CG14515 (GeneID 43454) showed Wolbachia per cell robust z, rep 1 = -0.369; Wolbachia per cell robust z, rep 2 = -0.175; Wolbachia per cell robust z, rep 3 = -1.12; inactive.
With knock-down of Cen (GeneID 35330), the record shows Wolbachia per cell robust z, rep 1 = 0.183; Wolbachia per cell robust z, rep 2 = -0.289; Wolbachia per cell robust z, rep 3 = 0.031; inactive.
e(y)3 (GeneID 32965) #1 showed Wolbachia per cell robust z, rep 1 = 0.296; Wolbachia per cell robust z, rep 2 = -0.924; Wolbachia per cell robust z, rep 3 = 1.59; inactive.
Depletion of e(y)3 (GeneID 32965) #2 resulted in: Wolbachia per cell robust z, rep 1 = 1.16; Wolbachia per cell robust z, rep 2 = -0.722; Wolbachia per cell robust z, rep 3 = 0.162; inactive.
Depletion of CG14330 (GeneID 42102) resulted in: Wolbachia per cell robust z, rep 1 = 1.28; Wolbachia per cell robust z, rep 2 = -1.95; Wolbachia per cell robust z, rep 3 = 0.94; inactive.
After knock-down of Acox57D-d (GeneID 37446) #1, the screen gave Wolbachia per cell robust z, rep 1 = -0.195; Wolbachia per cell robust z, rep 2 = -4.72; Wolbachia per cell robust z, rep 3 = 0.353; inactive.
For Acox57D-d (GeneID 37446) #2 the deposit lists Wolbachia per cell robust z, rep 1 = -0.49; Wolbachia per cell robust z, rep 2 = -1.19; Wolbachia per cell robust z, rep 3 = -0.359; inactive.
CG2528 (GeneID 35435) gave Wolbachia per cell robust z, rep 1 = -0.634; Wolbachia per cell robust z, rep 2 = -0.663; Wolbachia per cell robust z, rep 3 = -2.4; inactive.
Knock-down of Creld (GeneID 33166) #1 came out at: Wolbachia per cell robust z, rep 1 = 0.123; Wolbachia per cell robust z, rep 2 = 0.367; Wolbachia per cell robust z, rep 3 = 0.295; inactive.
With knock-down of Creld (GeneID 33166) #2, the record shows Wolbachia per cell robust z, rep 1 = -1.89; Wolbachia per cell robust z, rep 2 = -0.0715; Wolbachia per cell robust z, rep 3 = -0.631; inactive.
After knock-down of CG9498 (GeneID 33885), the screen gave Wolbachia per cell robust z, rep 1 = 0.05; Wolbachia per cell robust z, rep 2 = 0.773; Wolbachia per cell robust z, rep 3 = 2.18; inactive.
Against sud1 + PIG-S, the values are Wolbachia per cell robust z, rep 1 = 0.381; Wolbachia per cell robust z, rep 2 = -2.57; Wolbachia per cell robust z, rep 3 = 0.34; inactive.
Depletion of Mal-A3 (GeneID 35826) #1 resulted in: Wolbachia per cell robust z, rep 1 = -2.44; Wolbachia per cell robust z, rep 2 = -0.326; Wolbachia per cell robust z, rep 3 = 0.424; inactive.
Silencing of Mal-A3 (GeneID 35826) #2 resulted in: Wolbachia per cell robust z, rep 1 = 0.628; Wolbachia per cell robust z, rep 2 = -2.12; Wolbachia per cell robust z, rep 3 = 0.0207; inactive.
After knock-down of CG9825 (GeneID 37624) #1, the screen gave Wolbachia per cell robust z, rep 1 = 0.895; Wolbachia per cell robust z, rep 2 = -5.23; Wolbachia per cell robust z, rep 3 = 1.14; inactive.
CG9825 (GeneID 37624) #2 gave Wolbachia per cell robust z, rep 1 = -2.27; Wolbachia per cell robust z, rep 2 = -1.28; Wolbachia per cell robust z, rep 3 = -1.39; inactive.
For CG14314 (GeneID 42179), the entry reads Wolbachia per cell robust z, rep 1 = 0.436; Wolbachia per cell robust z, rep 2 = -0.179; Wolbachia per cell robust z, rep 3 = -0.95; inactive.
Depletion of CG5612 (GeneID 43316) gave: Wolbachia per cell robust z, rep 1 = 0.743; Wolbachia per cell robust z, rep 2 = -1.57; Wolbachia per cell robust z, rep 3 = -2.18; inactive.
After knock-down of Ctl1 (GeneID 38523), the screen gave Wolbachia per cell robust z, rep 1 = -0.00431; Wolbachia per cell robust z, rep 2 = 0.32; Wolbachia per cell robust z, rep 3 = -0.406; inactive.
CG14441 (GeneID 31611) showed Wolbachia per cell robust z, rep 1 = -0.062; Wolbachia per cell robust z, rep 2 = -0.127; Wolbachia per cell robust z, rep 3 = 0.235; inactive.
For CG15408 (GeneID 33548), the entry reads Wolbachia per cell robust z, rep 1 = 0.699; Wolbachia per cell robust z, rep 2 = -0.177; Wolbachia per cell robust z, rep 3 = 0.746; inactive.
